Compound potency records, mixed from different reports. Data source: NIAID ChemDB in PubChem.

Common to all: target-level tests; organism: HIV; protein: Reverse transcriptase

Conditions beyond the fields shown may differ between rows.

compound | read by | read-out | changes | result
Nc1nc2c(ncn2[C@H]2CC[C@@H](COP(=O)(O)OP(=O)(O)OP(=O)(O)O)O2)c(=O)[nH]1 | nucleotide incorporation / radiometric | Ki | RT-V75I F77L F116Y Q151M | 0.045 µM
Nc1ccn([C@@H]2CS[C@H](COP(=O)(O)OP(=O)(O)OP(=O)(O)O)O2)c(=O)n1 | radiometric | Ki | RT-K65R | 0.886 µM
Cc1cn([C@H]2CC[C@@H](COP(=O)(O)OP(=O)(O)OP(=O)(O)O)O2)c(=O)[nH]c1=O | nucleotide incorporation / radiometric | IC50 | RT-W88G | 0.41 µM
Cc1c(Cc2cccc3ccccc23)nc(Sc2cccs2)[nH]c1=O | ELISA | IC50 |  | 509 µM
CCN1c2nc(Cl)ccc2NC(=O)c2cc(CSc3cccc(C)c3)cnc21 | RT activity | IC50 | Y181C | 0.00463 µM
Nc1ncnc2c1ncn2[C@H]1CC[C@@H](COP(=O)(O)OP(=O)(O)OP(=O)(O)O)O1 | nucleotide incorporation / radiometric | IC50 |  | 45 µM
CCN1c2nc(Cl)ccc2NC(=O)c2cc(CSc3cccc(F)c3)cnc21 | RT activity | IC50 | Y181C | 0.459 µM
Cc1cc(Cc2ccc(Cl)c(Oc3cc(C#N)cc(C#N)c3)c2F)n[nH]c1=O |  | IC50 | K103N L100I | 0.007 µM
Nc1nc2c(ncn2[C@H]2CC[C@@H](COP(=O)(O)OP(=O)(O)OP(=O)(O)O)O2)c(=O)[nH]1 | nucleotide incorporation | IC50 | RT-K263V | 0.06 µM
COc1ccc(C(=O)CSc2nc(Cc3ccccc3)c(C)c(=O)[nH]2)cc1 | ELISA | IC50 |  | 1.1 µM
CCN1c2ncc(CSc3ccccc3)cc2C(=O)Nc2c(C)cc(Cl)nc21 | RT activity | IC50 | Y181C | 0.269 µM
Cc1c(Cc2ccccc2)nc(SCC(=O)c2ccccc2)[nH]c1=O | ELISA | IC50 |  | 1.85 µM
CC(C)=CCN1Cc2cccc3[nH]c(=S)n(c23)C[C@@H]1C | nucleotide incorporation | Ki |  | 0.69 µM
Fc1cccc(F)c1CC(=S)Nc1ccc(Cl)cn1 | radiometric | IC50 | L100I | >100 µM
Nc1ccn([C@H]2CC[C@@H](COP(=O)(O)OP(=O)(O)OP(=O)(O)O)O2)c(=O)n1 |  | Ki |  | 5.1 µM
CC(C)c1c(Cc2ccccc2)nc(SCC(=O)c2ccco2)[nH]c1=O | ELISA | IC50 |  | 0.43 µM
S=C(Cc1ccccn1)Nc1ccc(Cl)cc1 | radiometric | IC50 | K103N | >100 µM
CCN1c2ncc(CSc3ccccc3)cc2C(=O)N(C)c2c(C)cc(Cl)nc21 | RT activity | IC50 | Y181C | 0.507 µM
Fc1cccc(F)c1CC(=S)NCc1ccccn1 | radiometric | IC50 | K103N | >100 µM
Nc1ccn([C@H]2CC[C@@H](COP(=O)(O)OP(=O)(O)OP(=O)(O)OP(=O)(O)OC[C@@H]3CC[C@H](n4ccc(N)nc4=O)O3)O2)c(=O)n1 | nucleotide incorporation / radiometric | IC50 | RT-K65R | 11 µM
COc1ccc(C(=O)CSc2nc(Cc3ccccc3)c(C(C)C)c(=O)[nH]2)cc1 | ELISA | IC50 |  | 1.46 µM
Nc1nc2c(ncn2[C@H]2CC[C@@H](COP(=O)(O)OP(=O)(O)OP(=O)(O)O)O2)c(=O)[nH]1 |  | Ki |  | 0.028 µM
Cc1cn([C@H]2CC[C@@H](COP(=O)(O)OP(=O)(O)OP(=O)(O)OP(=O)(O)OC[C@@H]3CC[C@H](n4cc(C)c(=O)[nH]c4=O)O3)O2)c(=O)[nH]c1=O | nucleotide incorporation / radiometric | IC50 | RT-K65R | 42 µM
Cc1ccnc2c1NC(=O)c1cc(N)c[nH+]c1N2C1CC1 | RT activity | IC50 | K103N | 62.1 µM
Nc1nc2c(ncn2[C@H]2CC[C@@H](COP(=O)(O)OP(=O)(O)OP(=O)(O)OP(=O)(O)OC[C@@H]3CC[C@H](n4cnc5c(=O)[nH]c(N)nc54)O3)O2)c(=O)[nH]1 | nucleotide incorporation / radiometric | IC50 | RT-M41L T215Y | 0.39 µM
CC(C)c1c(Cc2cccc3ccccc23)nc(Sc2cccs2)[nH]c1=O | ELISA | IC50 |  | 528 µM
S=C(Cc1ccccn1)NCc1ccccc1Cl | radiometric | IC50 | K103N | >100 µM
Nc1nc2c(ncn2[C@H]2CC[C@@H](COP(=O)(O)OP(=O)(O)OP(=O)(O)O)O2)c(=O)[nH]1 | nucleotide incorporation / radiometric | IC50 | RT-D67N K70R T215Y K219Q | 0.092 µM

ICn is the concentration giving n% inhibition. An empty or dashed field is not shown.